Values from PubChem BioAssay AID504761 (Drosophila RNAi Screening Center, 2011)
The deposit covers about 22,000 reagents; below is an unselected part of those with a known target gene and a result. In the full data, 116 (0.52%) are marked active. 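Calls depend on retest data that are not deposited; infection was ranked per plate without normalising between plates; the unit of the infection score is not given.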 Raw values are not corrected between plates. The record does not give: the amount of reagent, the time to read-out.

- Screen: 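Insect host genes that dengue virus relies on to spread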 (primary screen)
- Cells: D.Mel-2 cells from Drosophila
- Knock-down reagent: long dsRNA against Drosophila genes
- Challenge: infection with dengue virus type 2; dose and infection time not stated
- Read-out: 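Per well on two replicate plates, imaging gave the percent of cells positive for viral envelope protein, ranked by infection, and a nuclear count of cells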
- Reading the numbers: infection score: higher = more virus-infected cells; cell count: higher = more cells in the well
- Active means: 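Very low infection ranking in both replicate wells (chance probability at most 0.065), then a retest showing infection dropped 1.5-fold or more at p below 0.05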
- Meaning of the calls: active = confirmed: knock-down lowers infection; inactive = not picked or not confirmed

target gene	dsRNA	infection score, replicate 1	infection score, replicate 2	cell count, replicate 1	cell count, replicate 2	outcome
crc	DRSC03513	2.09	0.85	1053	1058	inactive
cv-c	DRSC14969	1.13	4.41	6895	6379	inactive
cv-c	DRSC14970	2.36	4.59	6229	6336	inactive
cv-c	DRSC14972	4.33	16.6	6419	5430	inactive
cv-c	DRSC16428	2.52	4.19	6347	6712	inactive
cv-c	DRSC23199	0.62	0.96	6334	7106	inactive
cv-c	DRSC23809	3.38	4.84	5733	6153	inactive
cv-c	DRSC25812	7.96	3.42	6661	4182	inactive
cv-c	DRSC27016	7	2.91	6243	6323	inactive
CREG	DRSC16595	2.89	3.07	6097	5986	inactive
Fum3	DRSC10592	0.73	1.69	6034	6453	inactive
Fum3	DRSC25432	10.9	3.22	6705	6214	inactive
Decay	DRSC16930	3.37	2.96	6409	6898	inactive
Hs2st	DRSC03348	12.1	14.8	6519	6417	inactive
Recs1	DRSC16545	4.28	7.37	6208	6295	inactive
CG12963	DRSC06265	12.2	7.19	6753	6325	inactive
CG9899	DRSC04597	13.3	13.4	5047	3180	inactive
Cdc2rk	DRSC07590	21.9	12.8	5730	5415	inactive
Cdc2rk	DRSC29758	5.36	3.71	6009	6498	inactive
Acp26Ab	DRSC01856	2.48	5.44	5936	7255	inactive
Acp26Ab	DRSC28398			384	407	inactive
CG13671	DRSC10030	3.51	13.1	6245	5562	inactive
wkd	DRSC15777	4.61	9.02	6242	5977	inactive
CG3655	DRSC18181	16.1	0.69	4338	6365	inactive
CG3655	DRSC18477	7.69	0.65	2029	6820	inactive
CG3655	DRSC22688	1.82	1.24	7079	7325	inactive
CG15914	DRSC19739	2.58	1.52	6276	6559	inactive
Rrp6	DRSC16223	10.7	20	750	987	inactive
Set2	DRSC19765	1.41	2.22	6439	6316	inactive
RhoGEF64C	DRSC08318	4.3	2.9	6657	6892	inactive
RhoGEF64C	DRSC08319	1.31	1.77	5935	5552	inactive
RhoGEF64C	DRSC25939	3.15	7.36	6406	6359	inactive
Cnot4	DRSC02830	4.05	3.88	5771	5493	inactive
Cnot4	DRSC02831	7.38	15.6	5259	4865	inactive
fd59A	DRSC04685	12.4	18.8	6011	6384	inactive
fd59A	DRSC25524	0.76	0.86	6213	6597	inactive

A portion of the results above:
target gene	dsRNA	infection score, replicate 1	infection score, replicate 2	cell count, replicate 1	cell count, replicate 2	outcome
Fum3	DRSC10592	0.73	1.69	6034	6453	inactive
Fum3	DRSC25432	10.9	3.22	6705	6214	inactive
Decay	DRSC16930	3.37	2.96	6409	6898	inactive
Hs2st	DRSC03348	12.1	14.8	6519	6417	inactive
Recs1	DRSC16545	4.28	7.37	6208	6295	inactive
CG12963	DRSC06265	12.2	7.19	6753	6325	inactive

The results go on:
target gene	dsRNA	infection score, replicate 1	infection score, replicate 2	cell count, replicate 1	cell count, replicate 2	outcome
Tbc1d8-9	DRSC11820	3.88	12.2	5874	6699	inactive
CG34327	DRSC19517	4.36	1.35	6718	6883	inactive
CG34327	DRSC22380	3.94	15	6277	6942	inactive
CG34327	DRSC29197	13.2	1.17	6140	684	inactive
CG15382	DRSC00397	5.67	10.4	1887	6055	inactive
CG15382	DRSC24805	1.76	1.5	6533	6394	inactive
Fmo-1	DRSC04328	24	37.4	6263	3560	inactive
Fmo-1	DRSC29306	3.55		705	216	inactive
TotZ	DRSC13450	4.08	2.25	6079	6082	inactive
CG3062	DRSC18572	0.64	2.32	472	1814	inactive
CG12920	DRSC06234	23.9	14.4	6010	5608	inactive
Zir	DRSC00307	22.6	34.9	4957	5232	inactive
Tom70	DRSC02990	5.03	4.92	6002	6360	inactive
per	DRSC18818	8.75	2.11	5712	6952	inactive
per	DRSC26579	11.1	3.43	5812	3583	inactive
sunn	DRSC21659	1.3	3.79	5902	6361	inactive
Ance-2	DRSC02539	8.67	4.93	6287	6286	inactive
Lcp1	DRSC07455	4.73	10.5	6640	6810	inactive
t-Grip128	DRSC07853	1.33	0.97	6374	5981	inactive
t-Grip128	DRSC26796	10.6	3.18	6529	6893	inactive
Not3	DRSC04908	7.05	11.9	3317	3451	inactive
Not3	DRSC27324	2.07	4.21	4590	5059	inactive
